Measured values from several laboratories, pooled; numbers as filed in NIAID ChemDB.

Common to all: host cell toxicity; cell line: Vero mammalian cells; method: MTT; measure: CC50

CCn: concentration that lowers growth or viability of the cells by n%. Neighbouring rows are from separate reports.

smiles	result
COc1c(N2CCNC(C)C2)c(F)cc2c(=O)c(C(=O)O)cn(C3CC3)c12	>155.3 µM
COc1cc2c(cc1OC)CN(c1cc3c(cc1[N+](=O)[O-])c(=O)c(C(=O)O)cn3C1CC1)CC2	>142.5 µM
CC1COc2c(N3CCSCC3)c(F)c([N+](=O)[O-])c3c(=O)c(C(=O)O)cn1c23	153 µM
O=C(O)c1cn2c(n1)CN(c1cc3c(cc1[N+](=O)[O-])c(=O)c(C(=O)O)c1sc4ccccc4n13)CC2	124 µM
C[C@H]1COc2c(N3CCC4(CC3)OCCO4)c(F)c(N)c3c(=O)c(C(=O)O)cn1c23	>149 µM
O=C(O)c1c(=O)c2cc(F)c(N3CCN(C(=O)C4COc5ccccc5O4)CC3)cc2n2c1sc1ccccc12	111.7 µM
Cc1onc(-c2c(F)cccc2F)c1C(=O)N1CCN(c2c(F)c([N+](=O)[O-])c3c(=O)c(C(=O)O)cn4c3c2OCC4C)CC1	102 µM
COc1c(N2CCNC(C)C2)c(F)cc2c(=O)c(C(=O)O)cn(C3CC3)c12	>155.3 µM
CC1COc2c(N3CCC4(CC3)OCCO4)c(F)c([N+](=O)[O-])c3c(=O)c(C(=O)O)cn1c23	139 µM
COC1CCN(c2cc3c(cc2[N+](=O)[O-])c(=O)c(C(=O)O)cn3C2CC2)CC1OC	>117.5 µM
COc1c(N2CCC3(CC2)OCCO3)c(F)c([N+](=O)[O-])c2c(=O)c(C(=O)O)cn(C3CC3)c12	135 µM
COc1cc2c(cc1OC)CN(c1c(F)c([N+](=O)[O-])c3c(=O)c(C(=O)O)cn4c3c1OCC4C)CC2	62.5 µM
COc1c(N2CCN(C(c3ccccc3)c3ccc(Cl)cc3)CC2)c(F)c([N+](=O)[O-])c2c(=O)c(C(=O)O)cn(C3CC3)c12	103 µM
CCN(CC)C(=O)C1CCCN(c2cc3c(cc2[N+](=O)[O-])c(=O)c(C(=O)O)cn3C2CC2)C1	>146 µM
COc1c(N2CCN(C(=O)C3COc4ccccc4O3)CC2)c(F)cc2c(=O)c(C(=O)O)cn(C3CC3)c12	119 µM
O=C(O)c1cn(C2CC2)c2cc(N3CCC(N4CCCCC4)CC3)c(F)cc2c1=O	>151.1 µM
O=C(O)c1c(=O)c2cc(F)c(N3CCC(O)(c4ccc(Cl)cc4)CC3)cc2n2c1sc1ccccc12	119.5 µM
COc1c(N2CCC3(CC2)OCCO3)c(F)cc2c(=O)c(C(=O)O)cn(C3CC3)c12	149 µM
O=C(O)c1c(=O)c2cc(F)c(N3CCN(Cc4ccc5c(c4)OCO5)CC3)cc2n2c1sc1ccccc12	>117.6 µM
COc1c(N2CCc3ccccc3C2C(=O)NC(C)(C)C)c(F)c([N+](=O)[O-])c2c(=O)c(C(=O)O)cn(C3CC3)c12	113 µM
O=C(O)c1cn(C2CC2)c2cc(N3CCN(Cc4ccc5c(c4)OCO5)CC3)c(F)cc2c1=O	>134.3 µM
O=C(O)c1c(=O)c2cc(F)c(N3CCC4(CC3)OCCO4)cc2n2c1sc1ccccc12	>137.5 µM
COc1c(N2COCC2(C)C)c(F)c([N+](=O)[O-])c2c(=O)c(C(=O)O)cn(C3CC3)c12	148 µM
CC(C)(C)n1cc(C(=O)O)c(=O)c2cc([N+](=O)[O-])c(N3CCn4cc(C(=O)O)nc4C3)cc21	145.9 µM
CC1CN(c2c(F)cc3c(=O)c(C(=O)O)cn4c3c2OC[C@@H]4C)CC(C)O1	>166 µM

For reference, 2 entries again:

smiles,result
O=C(O)c1c(=O)c2cc(F)c(N3CCC(O)(c4ccc(Cl)cc4)CC3)cc2n2c1sc1ccccc12,119.5 µM
COc1c(N2CCc3ccccc3C2C(=O)NC(C)(C)C)c(F)c([N+](=O)[O-])c2c(=O)c(C(=O)O)cn(C3CC3)c12,113 µM